# Mutational tolerance of the Zika virus NS2B-NS3 protease

The scanned region of Zika virus MR766 is shown below (positions 1-308): NS2B is 2-131, NS3 begins at position 132.
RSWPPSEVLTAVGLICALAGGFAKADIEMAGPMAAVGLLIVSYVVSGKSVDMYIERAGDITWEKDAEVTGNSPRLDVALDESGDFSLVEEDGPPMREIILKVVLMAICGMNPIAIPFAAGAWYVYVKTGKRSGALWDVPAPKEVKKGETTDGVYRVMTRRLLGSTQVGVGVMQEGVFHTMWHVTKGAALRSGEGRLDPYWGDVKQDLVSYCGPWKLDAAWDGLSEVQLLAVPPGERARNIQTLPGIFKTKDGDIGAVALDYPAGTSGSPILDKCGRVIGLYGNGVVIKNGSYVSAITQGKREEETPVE

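Pools of virus carrying all single amino acid changes were selected for growth in Huh-7.5 cells. Deep sequencing gave the change in frequency of each mutant relative to wild type, averaged over three replicate libraries (two for positions 207-308). The study looked for pockets that tolerate few changes, as a guide for inhibitor design.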

The number is log2 of the effect relative to wild type; negative values mean reduced growth, higher values better tolerance. A change reads original residue, position, new residue.

substitution	log2 effect
R1I	-6.91
P5G	-1.07
S6E	-4.72
L9Q	-4.01
G13A	-6.75
G13I	-5.82
L14C	-1.33
I15E	-6.50
L18F	-5.83
L18W	-6.35
A19S	-1.81
F22A	-0.84
K24E	-2.48
D26G	-1.05
D26V	-6.30
A35Y	-5.76
I40L	-1.06
Y43S	-7.36
V45Q	-5.47
S46T	2.15
G47H	-6.19
K48Y	-4.67
S49C	-1.64
V50K	-6.35
E55R	-7.67
A57V	-0.06
I60G	-7.09
T61N	-0.41
W62Y	-6.13
V68G	-7.28
T69C	-4.86
T69N	-5.29
G70H	-5.97
N71A	-2.60
S72K	-5.51
P73Q	-5.98
L79Y	-6.10
G83L	-7.72
F85E	-5.33
F85Q	-5.51
D91*	-6.30
D91F	-2.88
D91S	-1.12
P94G	-3.29
M95Y	-0.05
L100T	-1.89
L100W	-2.52
A106P	-6.28
A106S	-1.02
I107R	-6.82
M110W	0.23
A114P	-7.52
P116M	-5.88
F117W	-3.56
A119*	-6.52
A121F	-1.49
Y123A	-1.52
V126*	-6.38
K127R	-1.38
T128A	-3.61
V138Y	-5.05
P139C	-4.98
A140G	-6.11
A140R	-5.69
E143P	-1.51
K146N	-2.67
E148W	-5.57
D151W	-2.06
G152M	-5.56
R155A	-6.18
M157F	-0.64
T165P	-6.46
Q166H	-3.24
V167*	-7.64
V167N	-5.13
G170A	-6.82
E174H	-5.51
V176I	-2.30
F177V	-6.51
H178I	-4.72
M180W	-5.27
W181R	-5.92
T184D	-5.41
A188Y	-5.15
S191L	-3.86
G192V	-7.02
G194H	-6.34
V203A	-7.76
D206F	-6.40
Y210G	-7.47
P213A	-1.12
K215W	-6.76
W220K	-6.47
L228Q	-3.53
L229E	-1.41
P233*	-7.14
G234H	-1.08
G234Q	-4.08
E235Y	-5.66
N239W	-5.37
I240L	-2.76
Q241A	-4.38
L243G	-5.58
L243T	-0.35
P244Y	-4.48
I246M	-5.05
F247A	-6.65
F247L	-7.47
D253M	-3.97
I254R	-7.11
G255P	-6.17
A256W	-5.30
V257F	-5.25
A258G	-6.75
D260W	-4.75
G264E	-5.44
I270T	-5.49
I278G	-5.48
Y281A	-5.98
N283*	-7.18
N283G	-5.27
V285A	-6.04
N289P	-6.43
G290Y	-4.91
Y292D	-4.86
V293C	-5.22
T305W	-1.40
V307H	-0.55

16 of these entries, quoted again:

{"substitution": "E143P", "log2 effect": -1.51}
{"substitution": "W181R", "log2 effect": -5.92}
{"substitution": "G13A", "log2 effect": -6.75}
{"substitution": "E174H", "log2 effect": -5.51}
{"substitution": "L79Y", "log2 effect": -6.10}
{"substitution": "K127R", "log2 effect": -1.38}
{"substitution": "K215W", "log2 effect": -6.76}
{"substitution": "L9Q", "log2 effect": -4.01}
{"substitution": "P5G", "log2 effect": -1.07}
{"substitution": "T128A", "log2 effect": -3.61}
{"substitution": "V293C", "log2 effect": -5.22}
{"substitution": "L18W", "log2 effect": -6.35}
{"substitution": "H178I", "log2 effect": -4.72}
{"substitution": "V138Y", "log2 effect": -5.05}
{"substitution": "I278G", "log2 effect": -5.48}
{"substitution": "N283G", "log2 effect": -5.27}

Position 1 still belongs to NS2A. In the paper, -1 or higher counts as tolerated. Positions 1-103, 104-206 and 207-308 were made and measured as separate libraries. Stop codons (*) centre on -7 and mark the level of dead virus. Values above 0 are not proof of better growth: six high scorers were tested one by one, five grew less well than wild type and one about as well.

Reference: Ni et al. 2025, doi:10.1038/s41467-025-63602-z.